Pooled drug test results. Numbers come from NIAID ChemDB, via PubChem.

Common to all: growth or infection tests; species: Mycobacterium avium; read-out: MIC

Rows are shuffled and stem from different studies.

SMILES	setting	strain or isolate	value
C=C1C(=O)O[C@@H]2/C=C(\C)CC/C=C(\C)CC[C@@H]12	-	-	128 µg/mL
[N-]=[N+]=NC[C@H]1O[C@H](O[C@H]2O[C@H](CN=[N+]=[N-])[C@@H](O)[C@H](O)[C@H]2O)[C@H](O)[C@@H](O)[C@@H]1O	-	NJ168	>128 µg/mL
Fc1ccc(/C(Cn2ccnc2)=N\OCc2ccc(-c3ccccc3)cc2)cc1	-	103317	20.7 µM
C=C1CC[C@@H](O)[C@]2(C)CC[C@H]3C(=C)C(=O)O[C@@H]3[C@@H]12	-	-	>128 µg/mL
Fc1ccc(C(Cn2ccnc2)NCc2ccc(-c3ccccc3)cc2)cc1	-	103317	10.7 µM
N/C(=N\NC(CC(=O)c1cccc(Cl)c1)c1cccnc1)c1ccccn1	-	485	32 µg/mL
Clc1ccc(/C(Cn2ccnc2)=N/OCc2ccc(-c3ccccc3)cc2)c(Cl)c1	-	103317	18.3 µM
CC(C)(C)c1cc(C(C)(C)C)c2oc(Cc3ccc(O)cc3)nc2c1	-	MY330/88	250 µM
O=C(NCc1ccc(Cl)c(Cl)c1)c1ncccc1O	-	CNCTC MY330/88	32 µM
CCCOc1cccc(NC(=O)OCCN2CCCCCC2)c1	-	MY330/88	250 µM
Cc1c(CN2CCN(C)CC2)cc(-c2ccccc2)n1-c1cccc2ccccc12	-	-	>16 µg/mL
CCCCOc1ccccc1NC(=O)OCC[NH+]1CCCC1	-	MY330/88	125 µM
O=C(NCc1cccnc1)c1ccccc1O	21 d	ATCC 25291	500 µM
Clc1ccc(/C(Cn2ccnc2)=N/OCc2cccc3ccccc23)cc1	-	103317	21.3 µM
CCCCCCOc1ccccc1NC(=O)OCC[N+]1(CC)CCCCC1	-	MY330/88	250 µM
CC(C)(C)n1cc(C(=O)O)c(=O)c2cc(F)c(N3CCNCC3)nc21	-	SMT	2 µg/mL
O=C(Nc1cccc(F)c1)c1cc(Cl)ccc1OS(=O)(=O)c1ccccc1	14 d	330/88	500 µM
CCCCCOc1ccccc1NC(=O)OCC[N+]1(Cc2ccccc2)CCCCC1	-	MY330/88	125 µM
CC(C)CC(NC(=O)c1nc2c(C(C)(C)C)cc(C(C)(C)C)cc2o1)C(=O)O	-	MY330/88	500 µM
Clc1ccc(CNc2ccccc2N2CCSCC2)cc1	-	103317	103 µM
O=C(Oc1cc(Cl)ccc1C(=O)Nc1ccc(Br)cc1)c1cnccn1	21 d	330/88	4 µM
CCCCCCOc1ccccc1NC(=O)OCC[N+]1(CCCCCC)CCCCC1	-	MY330/88	32 µM
CCCCCCCCCCCCN(CCCCCCCCCCCC)C[C@H]1O[C@H](O[C@H]2O[C@H](CN(CCCCCCCCCCCC)CCCCCCCCCCCC)[C@@H](O)[C@H](O)[C@H]2O)[C@H](O)[C@@H](O)[C@@H]1O	-	NJ211	>128 µg/mL
CCCCCCCC[N+]1(CCOC(=O)Nc2ccccc2OCCCCC)CCCCC1	-	MY330/88	32 µM
Cc1ccc(C(Cn2ccnc2)OCc2ccc(C(C)(C)C)cc2)cc1	-	103317	2.87 µM
CCOc1c(N2CCC(C(C)(C)N)C2)c(F)cc2c(=O)c(C(=O)O)cn(C3CC3)c12	-	RG4	0.5 µg/mL
Cc1cccc(C(=O)CC(N/N=C(\N)c2ccccn2)c2ccncc2)c1	-	485	16 µg/mL
CC(=O)NC[C@H]1CN(c2ccc(N3CCN(c4ccc([N+](=O)[O-])s4)CC3)c(F)c2)C(=O)O1	-	ATCC1723	0.25 µg/mL
O=C(Nc1ccc(C(F)(F)F)cc1)c1ccccc1O	-	CNCTC MY330/88	32 µM
O=C(Nc1cccc(C(F)(F)F)c1)c1ccc(Cl)cc1OS(=O)(=O)c1ccccc1	14 d	330/88	125 µM
Clc1ccc(C(Cn2ccnc2)NCc2ccc(-c3ccccc3)cc2)c(Cl)c1	-	103317	18.9 µM
COc1ccccc1NC(=O)OCCN(C)C	-	MY330/88	1000 µM
O=C(Nc1ccc(Cl)cc1)c1ccc(Cl)cc1OS(=O)(=O)c1ccccc1	14 d	330/88	8 µM
Cc1ccc(C(=O)CC(N/N=C(\N)c2ccccn2)c2cccnc2)cc1	-	485	16 µg/mL
CC(C)(C)c1cc(C(C)(C)C)c2oc(C(N)=O)nc2c1	-	MY330/88	125 µM
O=C(Nc1ccc(Br)cc1)c1ccc(Br)cc1OS(=O)(=O)c1ccccc1	14 d	330/88	8 µM
CCCCCCCCNC[C@H]1O[C@H](O[C@H]2O[C@H](CNCCCCCCCC)[C@@H](O)[C@H](O)[C@H]2O)[C@H](O)[C@@H](O)[C@@H]1O	-	NJ211	2 µg/mL
N/C(=N\NC(CC(=O)c1ccccc1)c1ccncc1)c1ccccn1	-	485	16 µg/mL
O=C(Oc1ccc(Cl)cc1C(=O)Nc1cccc(C(F)(F)F)c1)c1cnccn1	21 d	330/88	32 µM
O=C(Nc1ccccc1)c1ccccc1O	-	CNCTC MY330/88	125 µM
CCCCC(CC)CN(CC(CC)CCCC)C[C@H]1O[C@H](O[C@H]2O[C@H](CN(CC(CC)CCCC)CC(CC)CCCC)[C@@H](O)[C@H](O)[C@H]2O)[C@H](O)[C@@H](O)[C@@H]1O	-	NJ1854	>128 µg/mL
O=C(Nc1ccc(F)cc1)c1ccc(Cl)cc1OS(=O)(=O)c1ccccc1	21 d	330/88	32 µM
Cc1ccc(CNC(=O)c2ncccc2O)cc1	-	CNCTC MY330/88	125 µM
COc1cccc(C(=O)NCc2ccccn2)c1O	14 d	ATCC 25291	1000 µM
O=C(Oc1cc(Cl)ccc1C(=O)Nc1ccc(F)cc1)c1cnccn1	21 d	330/88	4 µM
Cc1ccc(NC(=O)c2ncccc2S)cc1	-	CNCTC MY330/88	32 µM
Cc1c(CN2CCSCC2)cc(-c2ccccc2Cl)n1-c1ccccc1F	-	-	>16 µg/mL
O=C(NCc1ccc(Br)cc1)c1ncccc1S	-	CNCTC MY330/88	8 µM
O=C(Oc1ccc(Cl)cc1C(=O)Nc1cccc(Cl)c1)c1cnccn1	21 d	330/88	8 µM
CCCCCCCOc1cccc(NC(=O)OCC[NH+]2CCCC2)c1	-	MY330/88	16 µM
O=C(NCc1cccnc1)c1ccc(Cl)cc1O	21 d	ATCC 25291	250 µM
CCCCCCCCCCCCCCCCS(=O)(=O)NC[C@H]1O[C@H](O[C@H]2O[C@H](CNS(=O)(=O)CCCCCCCCCCCCCCCC)[C@@H](O)[C@H](O)[C@H]2O)[C@H](O)[C@@H](O)[C@@H]1O	-	NJ3350	>64 µg/mL
c1ccc(-c2ccc(CNc3cccc(-n4ccnc4)c3)cc2)cc1	-	103317	11.8 µM
Cc1c(CN2CCN(C)CC2)cc(-c2ccccc2)n1-c1ccccc1Cl	-	-	>16 µg/mL
C=C1CC[C@@H](O)[C@]2(C)CC[C@@H](C(=C)CO)[C@H](O)[C@@H]12	-	-	>128 µg/mL
O=C(Nc1ccc(F)cc1)c1cc(Cl)ccc1OS(=O)(=O)c1ccccc1	14 d	330/88	16 µM
C=C1C(=O)O[C@@H]2[C@H]3C(C)=CC[C@@H](O)[C@]3(C)CC[C@@H]12	-	-	>128 µg/mL
CCCCCCCCCOc1cccc(NC(=O)OCCN2CCOCC2)c1	-	MY330/88	32 µM
Nc1ccc(C(=O)O)c(O)c1	14 d	330/88	32 µM
O=C(Nc1cccc(F)c1)c1ncccc1S	-	CNCTC MY330/88	62.5 µM
CCCCC(CC)CNC[C@H]1O[C@H](O[C@H]2O[C@H](CNCC(CC)CCCC)[C@@H](O)[C@H](O)[C@H]2O)[C@H](O)[C@@H](O)[C@@H]1O	-	NJ3404	64 µg/mL
Cc1c(CN2CCN(C)CC2)cc(-c2ccccc2F)n1-c1ccccc1F	-	-	>16 µg/mL
O=C(NCc1ccccn1)c1ccc(Cl)cc1O	21 d	ATCC 25291	500 µM

Repeating the first 6 entries:

| SMILES | setting | strain or isolate | value |
|---|---|---|---|
| C=C1C(=O)O[C@@H]2/C=C(\C)CC/C=C(\C)CC[C@@H]12 | - | - | 128 µg/mL |
| [N-]=[N+]=NC[C@H]1O[C@H](O[C@H]2O[C@H](CN=[N+]=[N-])[C@@H](O)[C@H](O)[C@H]2O)[C@H](O)[C@@H](O)[C@@H]1O | - | NJ168 | >128 µg/mL |
| Fc1ccc(/C(Cn2ccnc2)=N\OCc2ccc(-c3ccccc3)cc2)cc1 | - | 103317 | 20.7 µM |
| C=C1CC[C@@H](O)[C@]2(C)CC[C@H]3C(=C)C(=O)O[C@@H]3[C@@H]12 | - | - | >128 µg/mL |
| Fc1ccc(C(Cn2ccnc2)NCc2ccc(-c3ccccc3)cc2)cc1 | - | 103317 | 10.7 µM |
| N/C(=N\NC(CC(=O)c1cccc(Cl)c1)c1cccnc1)c1ccccn1 | - | 485 | 32 µg/mL |

Blank or dashed fields: not listed here.